We go through one sequence from paper PMC5327383, “Pneumococcal galactose catabolism is controlled by multiple regulators acting on pyruvate formate lyase” (Scientific Reports, 2017).

For at least one entry, the source does not settle the construct or the ends of the probe. Protein sequences can lack the tags named with them.

This data set addresses T1, GlnR (Streptococcus pneumoniae D39) (UniProt A0A0H2ZRB1).
T1 sequence (looked up): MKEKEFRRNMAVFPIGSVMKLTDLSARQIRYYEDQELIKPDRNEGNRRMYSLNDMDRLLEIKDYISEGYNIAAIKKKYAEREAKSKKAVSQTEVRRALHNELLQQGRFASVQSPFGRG
The experiment in a line: EMSA. Particulars: 10 mM sodium formate; 30 mM KCl, 1 mM DTT, 1 mM EDTA, 10% glycerol; room temperature 20 min, 20 ul, ~30 ng DNA, 0.1-0.5 uM protein; recombinant protein; residues 1-118; protein details: His6 (pLEICS-01); label: none (SYBR Green stain); probe letters rebuilt from the primers and the genome.

On to “CAGTTTGAAATAAAATATAGACTGTTTTAGAAAAGAAAGTGTAAAAATAGGGATTTTGCACTTGTTGAAATCGGTTACTTTATGGTATACTTGTC (double strand) [PpflB]”, for which the Kd stood at 790 nM.
